A mixed list of measured activities; the numbers were collected in NIAID ChemDB.

All rows: whole-cell or culture tests; species: Candida albicans; endpoint: MIC

Conditions beyond the fields shown may differ between rows.

| smiles | method | strain or isolate | result |
|---|---|---|---|
| O=C1C(=O)c2ccccc2-c2ccccc21 | visual reading | KACC 30003 | 60 µg/mL |
| O=c1oc2ccccc2c(O)c1C(c1c(O)c2ccccc2oc1=O)c1c[nH]c2ccccc12 | agar diffusion / agar | - | 50 µg/mL |
| OC(Cn1cncn1)(Cn1cncn1)c1ccc(F)cc1F | broth dilution | YL 338 | 512 µg/mL |
| COc1ccc(-c2cc(-c3ccc4oc(=O)c(-c5ccccc5)c(C)c4c3)nc3c2Cc2ccccc2-3)cc1OC | broth dilution / turbidity | MTCC 227 | 250 µg/mL |
| C[C@@H]1[C@H](O)[C@@H](C)/C=C/C=C/CC/C=C/C=C/C=C/C=C/C(O[C@H]2O[C@H](C)[C@@H](O)[C@H](N)[C@@H]2O)CC2O[C@](O)(CC(O)C(O)CCC(O)CC(O)CC(O)CC(=O)O[C@H]1C)CC(O)C2C(=O)O | agar diffusion | - | 12 µg/mL |
| O=C(O[C@@H]1O[C@@H]2COC(=O)c3cc(O)c(O)c(O)c3-c3c(cc(O)c(O)c3O)C(=O)O[C@H]([C@H]1O)[C@@H]2O)c1cc(O)c(O)c(O)c1 | visual reading | ATCC 10231 | 62.5 µg/mL |
| COc1cc2c(c3oc(=O)c4c(c13)CCC4=O)[C@H]1C[C@H](OC(C)=O)O[C@H]1O2 | agar | - | >100 µM |
| Cc1c(-c2ccccc2)c(=O)oc2ccc(-c3cc(-c4ccc(Cl)cc4)c4c(n3)-c3ccccc3CC4)cc12 | broth dilution / turbidity | MTCC 227 | 1000 µg/mL |
| C[C@H]1[C@H](O)[C@@H](C)/C=C/C=C/C=C/C=C/C=C/C=C/C=C/[C@H](O[C@@H]2O[C@H](C)[C@@H](O)[C@H](N)[C@@H]2O)C[C@@H]2O[C@](O)(C[C@@H](O)C[C@@H](O)CC[C@H](O)[C@@H](O)C[C@@H](O)CC(=O)O[C@H]1C)C[C@H](O)[C@H]2C(=O)O | MTT | ATCC 90028 | 3 µg/mL |
| Cc1ccc(-c2cc(-c3ccc4oc(=O)c(-c5ccccc5)c(C)c4c3)nc3c2Cc2ccccc2-3)cc1 | broth dilution / turbidity | MTCC 227 | 500 µg/mL |
| O=c1c2ccccc2ncn1NC(c1ccc(Cl)cc1)P(=O)(Oc1ccccc1)Oc1ccccc1 | agar diffusion / agar | - | 100 µg/mL |
| C[C@@H]1[C@H](O)[C@@H](C)/C=C/C=C/CC/C=C/C=C/C=C/C=C/C(O[C@H]2O[C@H](C)[C@@H](O)[C@H](N)[C@@H]2O)CC2O[C@](O)(CC(O)C(O)CCC(O)CC(O)CC(O)CC(=O)O[C@H]1C)CC(O)C2C(=O)O | absorbance | ATCC 10231 | 0.488 µg/mL |
| CO[C@H]1C[C@H](O[C@H]2CC[C@@]3(C)C(=CC[C@H]4C5=CC(=O)[C@@H]6[C@@H](C)OC(=O)[C@]56CC[C@@H]43)C2)O[C@H](C)[C@H]1O[C@H]1C[C@H](OC)[C@H](O[C@H]2C[C@H](OC)[C@H](O[C@@H]3C[C@@H](OC)[C@@H](O)[C@H](C)O3)[C@@H](C)O2)[C@@H](C)O1 | broth dilution / turbidity | ATCC 2091 | >100 µg/mL |
| Cc1cc(Cl)nc(NC(c2cccc([N+](=O)[O-])c2)P(=O)(Oc2ccccc2)Oc2ccccc2)n1 | agar diffusion / agar | - | 10 µg/mL |
| CO[C@H]1C[C@H](O[C@H]2CC[C@@]3(C)C(=CC[C@H]4C5=CC(=O)[C@@H]6[C@@H](C)OC(=O)[C@]56CC[C@@H]43)C2)O[C@H](C)[C@H]1O[C@H]1C[C@H](OC)[C@H](O[C@@H]2C[C@@H](OC)[C@@H](O[C@@H]3O[C@H](CO)[C@@H](O)[C@H](O)[C@H]3O)[C@H](C)O2)[C@@H](C)O1 | broth dilution / turbidity | ATCC 2091 | >100 µg/mL |
| C[C@@H]1[C@H](O)[C@@H](C)/C=C/C=C/CC/C=C/C=C/C=C/C=C/C(O[C@H]2O[C@H](C)[C@@H](O)[C@H](N)[C@@H]2O)CC2O[C@](O)(CC(O)C(O)CCC(O)CC(O)CC(O)CC(=O)O[C@H]1C)CC(O)C2C(=O)O | turbidity / visual reading | MTCC 227 | 100 µg/mL |
| CO[C@H]1C[C@H](O[C@H]2CC[C@@]3(C)C(=CC[C@@H]4[C@@H]3CC[C@]35C(=O)O[C@H](C)[C@H]3C(=O)C[C@]45O)C2)O[C@H](C)[C@H]1O[C@H]1C[C@H](OC)[C@H](O[C@@H]2C[C@@H](OC)[C@@H](O[C@@H]3O[C@H](CO)[C@@H](O)[C@H](O)[C@H]3O)[C@H](C)O2)[C@@H](C)O1 | broth dilution / turbidity | ATCC 2091 | 100 µg/mL |
| O=c1c2ccccc2ncn1NC(c1cccc([N+](=O)[O-])c1)P(=O)(Oc1ccccc1)Oc1ccccc1 | agar diffusion / agar | - | 100 µg/mL |
| CO[C@H]1C[C@H](O[C@H]2CC[C@@]3(C)C(=CC[C@@H]4[C@@H]3CC[C@]35C(=O)O[C@H](C)[C@H]3C(=O)C[C@]45O)C2)O[C@H](C)[C@H]1O[C@H]1C[C@H](OC)[C@H](O[C@@H]2C[C@@H](OC)[C@@H](O)[C@H](C)O2)[C@@H](C)O1 | broth dilution / turbidity | ATCC 2091 | 100 µg/mL |
| O=c1c2ccccc2ncn1NC(c1ccc(O)cc1O)P(=O)(Oc1ccccc1)Oc1ccccc1 | agar diffusion / agar | - | 10 µg/mL |
| CO[C@H]1C[C@H](O[C@H]2CC[C@@]3(C)C(=CC[C@@H]4[C@@H]3CC[C@]35C(=O)O[C@H](C)[C@H]3C(=O)C[C@]45O)C2)O[C@H](C)[C@H]1O | broth dilution / turbidity | ATCC 2091 | >100 µg/mL |
| Cc1nn(-c2ccccc2)c2c1C(c1c(O)c3ccccc3oc1=O)c1c(oc3ccccc3c1=O)O2 | agar diffusion / agar | - | 50 µg/mL |

A second listing of 2 rows from above:

smiles	method	strain or isolate	result
CO[C@H]1C[C@H](O[C@H]2CC[C@@]3(C)C(=CC[C@H]4C5=CC(=O)[C@@H]6[C@@H](C)OC(=O)[C@]56CC[C@@H]43)C2)O[C@H](C)[C@H]1O[C@H]1C[C@H](OC)[C@H](O[C@@H]2C[C@@H](OC)[C@@H](O[C@@H]3O[C@H](CO)[C@@H](O)[C@H](O)[C@H]3O)[C@H](C)O2)[C@@H](C)O1	broth dilution / turbidity	ATCC 2091	>100 µg/mL
C[C@@H]1[C@H](O)[C@@H](C)/C=C/C=C/CC/C=C/C=C/C=C/C=C/C(O[C@H]2O[C@H](C)[C@@H](O)[C@H](N)[C@@H]2O)CC2O[C@](O)(CC(O)C(O)CCC(O)CC(O)CC(O)CC(=O)O[C@H]1C)CC(O)C2C(=O)O	agar diffusion	-	12 µg/mL

Blank or dashed fields: not listed here.